± gives the expanded uncertainty stated by the source.
Assay: activity coefficient (dimensionless); xn = mol fraction of the nth substance listed
Details: 101.33 kPa, Liquid, Chromatography, x1 = 0

SMILES | activity coefficient (318.15 K) | activity coefficient (328.15 K) | activity coefficient (338.15 K) | activity coefficient (348.15 K) | activity coefficient (358.15 K) | activity coefficient (368.15 K)
C=CCCCCCCCC [1-decene] + CCCCCCCC[N+](CC)(CC)CC.O=S(=O)(F)[N-]S(=O)(=O)F | 13.2 ± 0.9 | 13.2 ± 0.9 | 13.3 ± 0.9 | 13.3 ± 0.9 | 13.3 ± 0.9 | 13.4 ± 0.9
CCCC(C)=O [pentan-2-one] + CCCC[N+]1(C)CCCC1.O=S(=O)(F)[N-]S(=O)(=O)F | 1.03 ± 0.06 | 1.1 ± 0.07 | 1.17 ± 0.07 | 1.23 ± 0.08 | 1.3 ± 0.08 | 1.36 ± 0.09
CCOC(C)=O [ethyl acetate] + CCCC[N+]1(C)CCCC1.O=S(=O)(F)[N-]S(=O)(=O)F | 1.32 ± 0.09 | 1.4 ± 0.09 | 1.48 ± 0.1 | 1.56 ± 0.1 | 1.64 ± 0.11 | 1.72 ± 0.12
CC1CCCCC1 [methylcyclohexane] + CCCC[N+]1(C)CCCC1.O=S(=O)(F)[N-]S(=O)(=O)F | 19.2 ± 1.3 | 18.6 ± 1.3 | 18.1 ± 1.2 | 17.6 ± 1.2 | 17.1 ± 1.2 | 16.7 ± 1.1
C=CCCCCCC [oct-1-ene] + CCCCCCCC[N+](CC)(CC)CC.O=S(=O)(F)[N-]S(=O)(=O)F | 8.12 ± 0.55 | 8.2 ± 0.56 | 8.26 ± 0.56 | 8.31 ± 0.57 | 8.33 ± 0.57 | 8.39 ± 0.57
CCCC(C)=O [pentan-2-one] + CCCCCCCC[N+](CC)(CC)CC.O=S(=O)(F)[N-]S(=O)(=O)F | 0.664 ± 0.045 | 0.706 ± 0.047 | 0.748 ± 0.049 | 0.789 ± 0.051 | 0.83 ± 0.053 | 0.871 ± 0.056
C#CCCC [1-pentyne] + CCCCCCCC[N+](CC)(CC)CC.O=S(=O)(F)[N-]S(=O)(=O)F | 1.48 ± 0.1 | 1.57 ± 0.1 | 1.66 ± 0.11 | 1.76 ± 0.12 | 1.85 ± 0.12 | 1.95 ± 0.13
CCOCC [diethyl ether] + CCCC[N+]1(C)CCCC1.O=S(=O)(F)[N-]S(=O)(=O)F | 3.6 ± 0.25 | 3.78 ± 0.26 | 3.96 ± 0.27 | 4.14 ± 0.28 | 4.32 ± 0.29 | 4.49 ± 0.31
C=CCCCCCCCC [1-decene] + CCCC[N+]1(C)CCCC1.O=S(=O)(F)[N-]S(=O)(=O)F | 51.1 ± 3.5 | 49.7 ± 3.4 | 48.3 ± 3.3 | 47.1 ± 3.2 | 46.1 ± 3.2 | 45.1 ± 3.1
CC(C)CO [2-methyl-1-propanol] + CCCC[N+]1(C)CCCC1.O=S(=O)(F)[N-]S(=O)(=O)F | 3.54 ± 0.24 | 3.3 ± 0.22 | 3.09 ± 0.21 | 2.9 ± 0.2 | 2.74 ± 0.19 | 2.6 ± 0.18
COC(C)(C)C [2-methoxy-2-methylpropane] + CCCC[N+]1(C)CCCC1.O=S(=O)(F)[N-]S(=O)(=O)F | 3.5 ± 0.24 | 3.72 ± 0.25 | 3.93 ± 0.27 | 4.15 ± 0.28 | 4.35 ± 0.3 | 4.56 ± 0.31
CC(C)c1ccccc1 [isopropylbenzene] + CCCC[N+]1(C)CCCC1.O=S(=O)(F)[N-]S(=O)(=O)F | 3.24 ± 0.22 | 3.42 ± 0.23 | 3.58 ± 0.24 | 3.75 ± 0.26 | 3.91 ± 0.27 | 4.07 ± 0.28
CCC(C)(C)OC [2-methoxy-2-methylbutane] + CCCCCCCC[N+](CC)(CC)CC.O=S(=O)(F)[N-]S(=O)(=O)F | 2.53 ± 0.17 | 2.65 ± 0.18 | 2.76 ± 0.19 | 2.87 ± 0.2 | 2.99 ± 0.2 | 3.1 ± 0.21
CC(C)OC(C)C [diisopropyl ether] + CCCCCCCC[N+](CC)(CC)CC.O=S(=O)(F)[N-]S(=O)(=O)F | 4.49 ± 0.31 | 4.61 ± 0.31 | 4.72 ± 0.32 | 4.84 ± 0.33 | 4.93 ± 0.34 | 5.05 ± 0.34
CCOCC [diethyl ether] + CCCCCCCC[N+](CC)(CC)CC.O=S(=O)(F)[N-]S(=O)(=O)F | 2.05 ± 0.14 | 2.13 ± 0.14 | 2.22 ± 0.15 | 2.31 ± 0.16 | 2.39 ± 0.16 | 2.47 ± 0.17
CCC(=O)OC [methyl propanoate] + CCCC[N+]1(C)CCCC1.O=S(=O)(F)[N-]S(=O)(=O)F | 1.2 ± 0.08 | 1.28 ± 0.08 | 1.36 ± 0.09 | 1.44 ± 0.09 | 1.52 ± 0.1 | 1.6 ± 0.11
CCC(=O)OC [methyl propanoate] + CCCCCCCC[N+](CC)(CC)CC.O=S(=O)(F)[N-]S(=O)(=O)F | 0.832 ± 0.054 | 0.881 ± 0.056 | 0.931 ± 0.059 | 0.981 ± 0.062 | 1.03 ± 0.06 | 1.08 ± 0.07

SMILES | activity coefficient (318.15 K) | activity coefficient (328.15 K) | activity coefficient (338.15 K) | activity coefficient (348.15 K) | activity coefficient (358.15 K) | activity coefficient (368.15 K)
CCCCCO [pentan-1-ol] + CCCC[N+]1(C)CCCC1.O=S(=O)(F)[N-]S(=O)(=O)F | 4.33 ± 0.29 | 4.08 ± 0.28 | 3.86 ± 0.26 | 3.67 ± 0.25 | 3.5 ± 0.24 | 3.33 ± 0.23
C1CCCCCCC1 [cyclooctane] + CCCC[N+]1(C)CCCC1.O=S(=O)(F)[N-]S(=O)(=O)F | 22.7 ± 1.6 | 21.8 ± 1.5 | 21 ± 1.4 | 20.3 ± 1.4 | 19.7 ± 1.3 | 19.2 ± 1.3
CCCC=O [butanal] + CCCC[N+]1(C)CCCC1.O=S(=O)(F)[N-]S(=O)(=O)F | 0.972 ± 0.061 | 1.03 ± 0.06 | 1.09 ± 0.07 | 1.15 ± 0.07 | 1.2 ± 0.08 | 1.27 ± 0.08
CCC(C)CC [3-methylpentane] + CCCCCCCC[N+](CC)(CC)CC.O=S(=O)(F)[N-]S(=O)(=O)F | 8.51 ± 0.58 | 8.45 ± 0.58 | 8.39 ± 0.57 | 8.33 ± 0.57 | 8.3 ± 0.57 | 8.25 ± 0.56
C#CCCC [1-pentyne] + CCCC[N+]1(C)CCCC1.O=S(=O)(F)[N-]S(=O)(=O)F | 2.6 ± 0.18 | 2.75 ± 0.19 | 2.9 ± 0.2 | 3.06 ± 0.21 | 3.22 ± 0.22 | 3.37 ± 0.23
c1ccncc1 [pyridine] + CCCCCCCC[N+](CC)(CC)CC.O=S(=O)(F)[N-]S(=O)(=O)F | 0.431 ± 0.035 | 0.457 ± 0.036 | 0.485 ± 0.037 | 0.512 ± 0.038 | 0.539 ± 0.039 | 0.565 ± 0.041
CCCCO [butan-1-ol] + CCCC[N+]1(C)CCCC1.O=S(=O)(F)[N-]S(=O)(=O)F | 3.63 ± 0.25 | 3.4 ± 0.23 | 3.2 ± 0.22 | 3.02 ± 0.21 | 2.87 ± 0.2 | 2.73 ± 0.19
C1=CCCCC1 [cyclohexene] + CCCCCCCC[N+](CC)(CC)CC.O=S(=O)(F)[N-]S(=O)(=O)F | 2.97 ± 0.2 | 3.03 ± 0.21 | 3.09 ± 0.21 | 3.14 ± 0.21 | 3.19 ± 0.22 | 3.25 ± 0.22
CCCCCCCCCC [decane] + CCCC[N+]1(C)CCCC1.O=S(=O)(F)[N-]S(=O)(=O)F | 107 ± 7 | 101 ± 7 | 96.2 ± 6.6 | 92.1 ± 6.3 | 88.1 ± 6 | 84.8 ± 5.8
CCC(C)(C)OC [2-methoxy-2-methylbutane] + CCCC[N+]1(C)CCCC1.O=S(=O)(F)[N-]S(=O)(=O)F | 4.93 ± 0.34 | 5.18 ± 0.35 | 5.44 ± 0.37 | 5.68 ± 0.39 | 5.94 ± 0.4 | 6.19 ± 0.42
CCCCCCCCC [nonane] + CCCCCCCC[N+](CC)(CC)CC.O=S(=O)(F)[N-]S(=O)(=O)F | 18.9 ± 1.3 | 18.5 ± 1.3 | 18 ± 1.2 | 17.7 ± 1.2 | 17.3 ± 1.2 | 16.9 ± 1.2
Cc1ccccc1 [toluene] + CCCC[N+]1(C)CCCC1.O=S(=O)(F)[N-]S(=O)(=O)F | 1.49 ± 0.1 | 1.59 ± 0.11 | 1.68 ± 0.11 | 1.78 ± 0.12 | 1.88 ± 0.13 | 1.97 ± 0.13
CC(C)(C)O [2-methylpropan-2-ol] + CCCC[N+]1(C)CCCC1.O=S(=O)(F)[N-]S(=O)(=O)F | 2.57 ± 0.17 | 2.46 ± 0.17 | 2.37 ± 0.16 | 2.27 ± 0.15 | 2.2 ± 0.15 | 2.12 ± 0.14
Cc1cccc(C)c1 [1,3-dimethylbenzene] + CCCC[N+]1(C)CCCC1.O=S(=O)(F)[N-]S(=O)(=O)F | 2.11 ± 0.14 | 2.25 ± 0.15 | 2.4 ± 0.16 | 2.54 ± 0.17 | 2.68 ± 0.18 | 2.83 ± 0.19
CO [methanol] + CCCCCCCC[N+](CC)(CC)CC.O=S(=O)(F)[N-]S(=O)(=O)F | 1.69 ± 0.11 | 1.61 ± 0.11 | 1.54 ± 0.1 | 1.47 ± 0.1 | 1.41 ± 0.09 | 1.35 ± 0.09
CCCC=O [butanal] + CCCCCCCC[N+](CC)(CC)CC.O=S(=O)(F)[N-]S(=O)(=O)F | 0.663 ± 0.045 | 0.699 ± 0.047 | 0.738 ± 0.049 | 0.776 ± 0.051 | 0.815 ± 0.053 | 0.851 ± 0.055

— the NIST ThermoML archive (doi:10.1016/j.jct.2018.07.024)
